Data from paper PMC2885305.

Tests used:
Test in all cases: purified protein
Details in all cases: 37.0 °C
[1] = test system: Nc1ncnc2c1ncn2[C@@H]1O[C@H](COP(=O)(O)OP(=O)(O)OP(=O)(O)O)[C@@H](O)[C@H]1O
[2] = test system: Nc1nc2c(ncn2[C@@H]2O[C@H](COP(=O)(O)OP(=O)(O)OP(=O)(O)O)[C@@H](O)[C@H]2O)c(=O)[nH]1
[3] = test system: O=c1ccn([C@@H]2O[C@H](COP(=O)(O)OP(=O)(O)OP(=O)(O)O)[C@@H](O)[C@H]2O)c(=O)[nH]1

## maltokinase (Mak) from Mycobacterium bovis BCG (Mycobacterium tuberculosis variant bovis BCG str. Tokyo 172)
[1]
  Km: 740 ± 120 µM
  Vmax: 21.4 µmol/min/mg
[2]
  Km: 1010 ± 170 µM
  Vmax: 18.6 µmol/min/mg
[3]
  Km: 1300 ± 130 µM
  Vmax: 7.07 µmol/min/mg
